What was measured:
HIV-1 strain IIIB = assay: inhibition of growth of HIV-1 in MT-2 cells, CPE (cell death) measured with MTT dye; assay type: cell-based; details: T lymphoid MT-2 cell lines, after 5 days
Source text: In Table 3 data is shown for the ability of these compounds to inhibit growth of HIV-1 strain IIIB in T lymphoid MT-2 cell lines. The endpoint of these experiments after 5 days is CPE (cell death) measured with the metabolic MTT dye.

HIV-1 protease = HIV-1 protease (Human immunodeficiency virus type 1 group M subtype B, UniProt P04585); assay: in vitro inhibition of HIV-1 protease (octapeptide substrate cleavage, HPLC); details: substrate H-Val-Ser-Gln-Asn-Tyr-Pro-Ile-Val-OH
Experimental: HIV-1 protease is available for purchase from Medigenics, 701 Mercy Rd., Suite 420, Omaha, Nebraska 68106. Protease activity is assayed using the octapeptide H-Val-Ser-Gln-Asn-Tyr-Pro-Ile-Val-OH as the substrate. Cleavage of the substrate is quantitated by measuring the production of H-Val-Ser-Gln-Asn-Tyr-OH by HPLC analysis by the method described by Tomaselli et al., (cited previously).

O=C(N[C@H]1CCCC[C@@H]1NC(=O)[C@H](Cc1ccccc1)CC(O)C[C@@H](Cc1ccccc1)C(=O)N[C@H]1CCCC[C@@H]1NC(=O)c1ccc2ccccc2n1)c1ccc2ccccc2n1
% Inhibition at Concentration (HIV-1 strain IIIB; 2.5 µg/ml): 104.1%
% Inhibition at Concentration (HIV-1 strain IIIB; .625 µg/ml): 11.3%
IC50 (HIV-1 protease): 1 nM

— patent publication EP0492136A2, “Retroviral protease inhibitors derived from 3-chloro-2-chloromethyl-1-propene” (AMERICAN CYANAMID COMPANY, priority 1990, dated 1992)
